This series concerns the molecule itself. Kind of series: native MS.

B1: MtATP-phosphoribosyltransferase (enzyme)
chain: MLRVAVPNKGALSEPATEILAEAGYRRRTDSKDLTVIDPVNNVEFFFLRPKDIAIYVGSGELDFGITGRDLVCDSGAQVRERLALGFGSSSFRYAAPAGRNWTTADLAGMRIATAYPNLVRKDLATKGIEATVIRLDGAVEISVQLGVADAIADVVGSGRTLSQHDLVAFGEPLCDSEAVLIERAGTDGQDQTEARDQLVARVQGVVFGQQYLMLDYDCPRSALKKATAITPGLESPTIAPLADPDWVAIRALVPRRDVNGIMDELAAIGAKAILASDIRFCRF
With B1, the “stoichiometry N” value was determined as 2.

Broadly, the stoichiometry N is a count of units in the complex or per binding partner.

(Values after PMC5415358, “Hybrid Mass Spectrometry Approaches to Determine How L-Histidine Feedback Regulates the Enzyzme MtATP-Phosphoribosyltransferase” (Structure(London, England:1993), 2017).)
